Measured values from DBAASP.

Tested on: Botrytis cinerea
Experiment: ≥ marks a high value that may be exact or a test limit, other limits are often not marked, values filed in µg/mL are converted to µM

MIC: ≥ 61.2 µM
Compound: CC[C@H](C)[C@H](NC(=O)CNC(=O)[C@H](C)NC(=O)[C@@H]1CCCN1C(=O)CNC(=O)[C@H](C)NC(=O)[C@H](CC(C)C)NC(=O)[C@H](Cc1ccc(O)cc1)NC(=O)[C@H](CCCCN)NC(=O)[C@H](CC(C)C)NC(=O)[C@@H](NC(=O)[C@H](CCCCN)NC(=O)[C@H](CCCCN)NC(=O)[C@H](Cc1ccccc1)NC(=O)[C@H](CC(C)C)NC(=O)[C@H](CCCCN)NC(=O)[C@@H](N)CCCCN)[C@@H](C)CC)C(=O)NCC(=O)N[C@@H](CCCCN)C(=O)N[C@@H](Cc1ccccc1)C(=O)N[C@@H](CC(C)C)C(=O)N[C@@H](Cc1cnc[nH]1)C(=O)N[C@@H](CO)C(=O)N[C@@H](C)C(=O)N[C@@H](CCCCN)C(=O)N[C@@H](CCCCN)C(=O)N[C@@H](CC(=O)O)C(=O)N[C@@H](CCC(=O)O)C(=O)N[C@@H](CC(C)C)C(=O)O [KKLFKKILKYLAGPAGIGKFLHSAKKDEL]
